These results are taken from patent EP4831293A1, “BIOSYNTHETIC GENE CLUSTER FOR POLYENE MACROLIDE NATURAL PRODUCT MANDIMYCIN, AND NATURAL PRODUCT AND USE THEREOF” (dated 2026).

For one assay, the system named is Candida parapsilosis. Put plainly: Drug resistance test on agar plates with 8x MIC. The note with it: 8× MIC agar plates, 30°C, 2 days. As to the method: (§1) Different Candida species and other fungi were cultured overnight in YPD broth with shaking (200 rpm, 30°C) for 16 h. A fungal suspension having a concentration of approximately 10^10 CFU/mL was prepared, and 0.1 mL aliquot of the suspension was spread onto YPD agar plates containing 8× MIC concentrations of mandimycin, amphotericin B, nystatin, or natamycin. The inoculated plates were incubated at 30°C for 2 days to identify resistant colonies. A number of colonies growing in the presence of the antifungal agents was calculated. […] In contrast, amphotericin B produced an average of 6 resistant Candida auris colonies, 5 resistant Candida albicans colonies, 12 resistant Cryptococcus neoformans colonies, 560 resistant Candida tropicalis colonies, and 5 resistant Candida parapsilosis colonies per agar plate. Nystatin produced an average of 2 resistant Candida auris colonies, 24 resistant Candida albicans colonies, 3 resistant Cryptococcus neoformans colonies, 55 resistant Candida tropicalis colonies, 2 resistant Candida parapsilosis colonies, and 23 resistant Candida glabrata colonies per agar plate. Natamycin produced an average of 13 resistant Candida auris colonies, 4 resistant Candida albicans colonies, 34 resistant Cryptococcus neoformans colonies, 40 resistant Candida tropicalis colonies, 8 resistant Candida parapsilosis colonies, and 5 resistant Candida glabrata colonies per agar plate.

The next assay deals with Candida auris. In words: Drug resistance test on agar plates with 8x MIC. The note with it: 8× MIC agar plates, 30°C, 2 days. On the procedure: as §1
A further assay concerns Candida glabrata. In words: Drug resistance test on agar plates with 8x MIC. To be noted: 8× MIC agar plates, 30°C, 2 days. As to the method: as §1
Another assay relates to Cryptococcus neoformans. In words: Drug resistance test on agar plates with 8x MIC. The note with it: 8× MIC agar plates, 30°C, 2 days. On the procedure:
as §1

The next assay has as its system Candida tropicalis. Put plainly: Drug resistance test on agar plates with 8x MIC. To be noted: 8× MIC agar plates, 30°C, 2 days. On the procedure: as §1
Another assay relates to Candida albicans. Put plainly: Drug resistance test on agar plates with 8x MIC. To be noted: 8× MIC agar plates, 30°C, 2 days. On the procedure:
as §1

Assay [1] concerns Candida albicans BNCC 186382. In words: Mouse model of invasive candidiasis (survival). The note with it: 10 mg/kg once daily for four days, monitored 20 days. As to the method:
Specific pathogen-free female ICR mice (Hangzhou Medical College, China), aged 6 weeks and weighing 23-27 g, were used. The mice were randomly housed, with six mice per cage, and were acclimated for three days prior to the experiment. To induce immunosuppression, the mice received intraperitoneal injections of cyclophosphamide (200 mg/kg) and subcutaneous injections of cortisone acetate (500 mg/kg) on Day -2 and Day +3, respectively. To prevent cross-infection, the mice received enrofloxacin in drinking water at a concentration of 50 µg/mL from Day 1 to Day 3, followed by subcutaneous injection of ceftazidime (200 µg/kg) from Day 0 to Day 9. Invasive candidiasis was induced by intravenous injection of 1 × 10^6 CFU of Candida albicans BNCC 186382. Treatment was initiated 16 h after infection, including subcutaneous injection of mandimycin (formulated in 10% DMSO and 10% Tween 80) at doses of 1 mg/kg, 5 mg/kg, 10 mg/kg, and 20 mg/kg once daily for four consecutive days, together with amphotericin B at a dose of 10 mg/kg. The mice were monitored for a total of 20 days. Survival curves were plotted using GraphPad Prism 9. When mandimycin was administered at a dose of 10 mg/kg, a survival rate of mice reached 100%.

As for `C[C@@H]1C/C=C/C=C/C=C/C=C/[C@H](O[C@@H]2O[C@H](C)[C@@H](O)[C@H](N)[C@@H]2O)C[C@@H]2O[C@](O)(C[C@@H](O)C[C@H]3O[C@@H]3/C=C/C(=O)O1)C[C@H](O)[C@H]2C(=O)O`, the “resistant Candida parapsilosis colonies per agar plate (average)” value with Candida parapsilosis turned out to be 8 colonies per agar plate. Besides, in the assay on Candida auris, the “resistant Candida auris colonies per agar plate (average)” value worked out at 13 colonies per agar plate. In addition, in the assay on Candida glabrata, the “resistant Candida glabrata colonies per agar plate (average)” value amounted to 5 colonies per agar plate. The “resistant Cryptococcus neoformans colonies per agar plate (average)” value in the assay on Cryptococcus neoformans is 34 colonies per agar plate. The “resistant Candida tropicalis colonies per agar plate (average)” value in the assay on Candida tropicalis is recorded as 40 colonies per agar plate. In the assay on Candida albicans, the “resistant Candida albicans colonies per agar plate (average)” value is 4 colonies per agar plate.
For the molecule amphotericin B, the “resistant Candida parapsilosis colonies per agar plate (average)” value in the assay with Candida parapsilosis is recorded as 5 colonies per agar plate. Also, the “resistant Candida auris colonies per agar plate (average)” value with Candida auris is reported as 6 colonies per agar plate. For the same molecule, the “resistant Cryptococcus neoformans colonies per agar plate (average)” value in the assay on Cryptococcus neoformans was determined as 12 colonies per agar plate. The “resistant Candida tropicalis colonies per agar plate (average)” value with Candida tropicalis is given as 560 colonies per agar plate. The “resistant Candida albicans colonies per agar plate (average)” value in the assay on Candida albicans was 5 colonies per agar plate. Moreover, the “survival rate of mice” value in assay [1] came out at 80%.
Take nystatin: the “resistant Candida parapsilosis colonies per agar plate (average)” value in the assay on Candida parapsilosis came out at 2 colonies per agar plate. Besides, the “resistant Candida auris colonies per agar plate (average)” value in the assay on Candida auris is listed as 2 colonies per agar plate. For the same molecule, the “resistant Candida glabrata colonies per agar plate (average)” value with Candida glabrata amounted to 23 colonies per agar plate. Besides, the “resistant Cryptococcus neoformans colonies per agar plate (average)” value with Cryptococcus neoformans was 3 colonies per agar plate. Besides, in the assay with Candida tropicalis, the “resistant Candida tropicalis colonies per agar plate (average)” value was 55 colonies per agar plate. Besides, the “resistant Candida albicans colonies per agar plate (average)” value in the assay with Candida albicans is 24 colonies per agar plate.
